{
  "sequences": {"note": "Protein sequences, listed by entry. Tags and fused reporters are not part of them.", "UniProt P62837, whole entry, looked up": "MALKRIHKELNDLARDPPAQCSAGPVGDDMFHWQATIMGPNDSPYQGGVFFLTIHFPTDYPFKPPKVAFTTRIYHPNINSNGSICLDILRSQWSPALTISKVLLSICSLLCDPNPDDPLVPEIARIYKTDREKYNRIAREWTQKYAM"},
  "source": "patent US20080261241A1",
  "about": "“Targeted ubiquitination of proteins and screening methods using a new class of ubiquitin ligase proteins” (INSTITUT PASTEUR, priority 2007, published 2008)",
  "molecular_target": "His-tagged UbcH5B (UniProt P62837)",
  "data": [
    {"substance": "GST-IpaH9.8-C337A", "values": [
      {"measurement": "removal of ubiquitin from ubiquitinated UbcH5B, immunoblot with streptavidin-peroxidase", "result": "This activity was not observed when GST-IpaH9.8-C337A was added to the reaction mixture"}
    ]}
  ]
}
